One compound from patent US8354498B2, “CD4 mimic peptides and their uses” (Commissariat a l'Energie Atomique, priority 2006, dated 2013) can be followed below.

Usually EC50 stands for the concentration needed to bring the measured effect to its halfway point. A word on the IC50: it is the point on the concentration scale where inhibition reaches its midpoint. Broadly, the Kd is the equilibrium constant for the complex coming apart.

Structures are written as SMILES.

One assay has as its system HIV-1 Ba-L. Description: Dendritic cells assay: MO-DC/CD4+ T cell co-cultures, replication competent virus. It is filed as cell-based. Here is the method: Dendritic cell experiments were preformed with the replication-competent CCR5 co-receptor, using non-syncytium inducing, subtype B HIV-1 strain Ba-L whose infectious titer was determined on cultures of PHA/IL-2 stimulated PBMC.
Monocytes were separated from the buffy-coats of HIV seronegative blood donors by counter-flow elutriation and E-rosetting. They were subsequently differentiated to monocyte-derived dendritic cells (MO-DC) using GM-CSF and IL-4. […] After 30 minutes, 100 μl of MO-DC were added (4×10^5 cells/ml) and incubated for 2 h (37° C., 5% CO2). Afterwards, cells were washed 3 times and autologous CD4+ T cells were added, in the presence of compound. Co-cultures were incubated for 24 h, after which the cells were washed again (3 times) to remove the compound. Cells were incubated during 14 days of primary culture, during which half of the culture medium was refreshed twice weekly, without compound. At day 14, cultures were washed and PHA/IL-2 activated PBMC were added (2×10^5 cells/cup) to detect any latent or subliminal infection during a supplementary 14 days of secondary culture. Culture supernatants of primary (day 7 and day 14) and secondary (day 28) cultures were analyzed for the presence of HIV p24 Ag by a monoclonal p24 antibody (HuMab-HIVp24; BIOMARIC NV) enzyme-linked immunosorbant assay (ELISA).
Importantly, the replication-competent HIV-1 Ba-L reference strain, was used for these experiments. The virus was shortly pre-incubated with a dilution range of one of the compounds before addition of the MO-DC target cells. The compound remained present during infection and during the first 24 h of the co-culture of the MO-DC with the autologous CD4^+ T cells, but was washed away afterwards.

The test system of a further assay is HIV-1 pseudovirus SF162. Description: HIV single cycle pseudovirus assay in GHOST cells. The assay is classed as cell-based. How it is done: For single-cycle infection experiments, HIV pseudoviruses representative of different HIV-1 subtypes were produced by co-transfection of 2×10^5 HEK293 (American Type Culture Collection) derived cells expressing the SV40 T antigen (HEK293 T), using the calcium phosphate method (ProFection® mammalian transfection system; PROMEGA). To this end, 1 μg of an HIV-1 env expressing vector under control of a CMV promoter, derived from pcDNA4/TO backbone vector (INVITROGEN) and 400 ng of the HIV-1 genomic vector (pNL4-3.Luc R^−E^−; National Institutes of Health AIDS Research and Reference Reagent program; catalogue number 3418), under control of the LTR promoter were used. pNL4-3.Luc R^−E^− contains the whole HIV genome, including a packaging signal, but has a frameshift in the env and vpr genes rendering it non-infectious. Furthermore a luciferase reporter gene replaces the nef gene. After 24 h, the medium was replaced with medium containing 1 mM sodium butyrate (SIGMA-ALDRICH) and the cells were further incubated for an additional 24 h. Afterwards, the supernatant with the pseudovirus was harvested, filtered (Millex 0.45 μm filters, MILLIPORE) and after adding Fetal calf serum (FCS; 10%) stored at −80° C. Pseudoviruses of different HIV-1 subtypes were created, including pseudoviruses derived from the subtype B, CCR5 co-receptor using strains Ba-L and SF162; the subtype B, CXCR4 co-receptor using strains Mn; the subtype C, CCR5 co-receptor using strains VI829, VI1358 and MJ4 and the CRF01_AE, CXCR4 co-receptor using strain CA10-3.
Fifty microliters of HIV pseudovirus were pre-incubated with 50 μl of a dilution series of a CD4 miniprotein or reference compound. After 15 minutes, 100 μl of GHOST target cells (AIDS REFERENCE AND REAGENT PROGRAM; 1.2×10^5 cells/ml) expressing CD4 and either of the HIV co-receptors CCR5 or CXCR4 were added to the 96-well cups containing the pre-treated pseudovirus. The GHOST cells were lysed 48 h post-infection by addition of the luciferin substrate (SteadyLite HTS, PERKIN ELMER LIFE SCIENCES). The resulting light signal, expressed as relative lights units (RLU), was quantified in a luminometer (Top Count™, CANBERRA-PACKARD).

The subject of another assay is HIV-1 77(X4). Description: Acute infection assay in PM1 cells. The assay is classed as cell-based. The settings on record: day 5, read-out: Antiviral activity IC50. How it is done:
For the acute infection assay in PM1 cell line (Lusso et al., J. virol., 1995, 69, 3712-3720), an immortalized CD4^+CCR5^+CXCR4^+ T-cell clone susceptible of a wide variety of HIV-1 strains, the cells were seeded at 2.5×10^4 cells/well into flat-bottom 96-well plates in 200 μL of complete RPMI medium. Cells were then exposed to the viral stocks (˜50 TCID50/well) pre-treated or not with serial dilutions of inhibitors for 30 min. After overnight incubation at 37° C., the cells were washed twice and recultured in complete RPMI medium supplemented with the appropriate inhibitors. After 3, 5 or 7 days, the culture supernatant was removed […] p24 antigen testing and replaced with fresh medium containing the appropriate inhibitors. The extracellular p24 concentrations were measured by capture ELISA, using a sandwich of specific antibodies (AALTO BIO REAGENTS).
The experimental procedures are as described in example 1.

Another assay addresses gp120 Bal. Description: Direct binding by fluorescence anisotropy of Alexa-labeled mini-proteins. Further details: species or system HIV-1. The settings on record: Alexa labeled mini-protein 0.5 nM; gp120 Bal (R5-tropic); read-out: Dissociation constant (Kd). Here is the method: Binding assays by fluorescence anisotropy were made in a LJL Analyst (LJL BIOSYSTEMS) microplate reader using 384-wells plates. All peptides were diluted in 10 mM sodium phosphate buffer, pH 7.0, with 135 mM NaCl and 0.05% Tween 20.
Direct binding assays of fluorescent peptides were performed in triplicates by adding 10 μL of 0.5 nM Alexa-labeled mini-proteins and 10 μL of serial dilutions (two-thirds dilutions in 16 wells, starting at 200 nM) of gp120 SF2, SF162, BaL, IIIB and YU2. Collected data were fitted to the following equation using a non-linear regression program (Prism, GraphPad software Inc.):
[formula] where A, Af and Ab are respectively the measured, free and fully bounded anisotropy, Lt is the total labeled mini-protein concentration, Rt is the total gp120 concentration and Kd the thermodynamic dissociation constant. d) FACS Analysis of CD4M48-Induced Envelope Conformational Change
For orientation: Fluorescence polarisation rises when a labelled molecule tumbles more slowly, as on binding a larger partner.

Take `CC(C)C[C@@H]1NC(=O)CNC(=O)[C@H](CC(C)C)NC(=O)[C@H](CO)NC(=O)[C@H](CCCCN)NC(=O)[C@@H]2CSSC[C@@H](C(=O)N[C@H](C(N)=O)C(C)C)NC(=O)[C@H](C)NC(=O)[C@@H]3CSSC[C@H](NC(=O)[C@H](Cc4ccccc4)NC(=O)[C@H](Cc4c[nH]cn4)NC(=O)[C@H](CC(C)C)NC(=O)[C@H](CC(N)=O)NC(=O)CCSSC[C@H](NC(=O)[C@H](CCCNC(=N)N)NC(=O)CNC(=O)[C@H](CC(C)C)NC1=O)C(=O)N[C@@H](C)C(=O)N1CCC[C@@H]1C(=O)N[C@@H]([C@@H](C)O)C(=O)N[C@@H](Cc1ccccc1)C(=O)N3)C(=O)N[C@@H](CCC(N)=O)C(=O)N[C@@H](CC(C)C)C(=O)N[C@@H](CCCNC(=N)N)C(=O)N2` [CD4M48]: in the assay on HIV-1 Ba-L (Day 7), the “EC50 range after 7 days of primary culture” value is “lower μM range”. Besides, the “Cmin, secondary culture, Day 28 (minimal concentration blocking infection)” value in the assay with HIV-1 Ba-L (confirmed at Day 28) amounted to 6.605 µM. Also, the EC50 in the assay on HIV-1 pseudovirus SF162 (pseudovirus SF162, subtype B, R5, read-out: antiviral activity EC50) turned out to be 5 nM. Further, the “Enhancement of antiviral activity relative to M47 and M33” value with HIV-1 pseudovirus SF162 (single-cycle HIV-1 SF162 pseudovirus assay) is “approximately 4 fold”. Besides, the IC50 with HIV-1 77(X4) amounted to 250 nM. For the same compound, at gp120 Bal, the Kd is 5.46 ± 0.23 nM.
